Results reported in patent US10835556B2, “Hydrolyzed tetravalent metal salts and methods of biofilm inhibition” (THE BOARD OF TRUSTEES OF THE UNIVERSITY OF ILLINOIS, priority 2018, dated 2020).
This is a selection: effects in other tests are not listed, and their absence says nothing.

System: S. mutans
Assay: Effect on planktonic growth (growth curve, UV-Vis absorption)
Format: cell-based, Streptococcus mutans
Conditions: products of ceric salt hydrolysis

Substance: ammonium nitrate
- activity in limiting planktonic growth: not active
